Measurements from paper PMC2765250 (Vaccine, 2009).

Target: purified rhesus macaque MHC class I molecule Mamu-B*17 with human beta2-microglobulin (rhesus macaque | human)
Assay: radioligand binding

Binder	IC50 [µM]
QTIVFIWFI [VACV-WR peptide 9NP (QTIVFIWFI), ORF A14.5L]	15.5
KTSTLIFFV [VACV-WR peptide 75NP (KTSTLIFFV), ORF H2R]	13.3
